# HIV-1 NL4-3 point mutations in protease: replication capacity

Protein: protease of HIV-1 NL4-3, numbered from its first residue. The source prints no sequence; the chain below is taken from UniProt P12497, a closely related isolate, and fits the source at the 87 positions it covers.
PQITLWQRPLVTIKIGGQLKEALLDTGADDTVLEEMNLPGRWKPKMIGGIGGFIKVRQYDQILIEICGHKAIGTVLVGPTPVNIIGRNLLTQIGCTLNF
The overlapping Gag p6 frame may change too; the source does not say.
Effects on overlapping genes or RNA elements are not listed.

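Random point mutant libraries of HIV-1 NL4-3, one for each of seven fragments, were passaged in CEM T lymphocytes. Sequencing gave the RC index: frequency after two rounds over frequency in the input plasmid.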

A higher RC index is a better tolerated change; approximate classes are lethal up to 0.1, attenuated to 0.2, tolerated above.
Each entry names the wild-type residue, its position and the residue put in its place.

mutation,base,RC index
P79S,C2487T,0.0709
N83S,A2500G,0.0470
G52D,G2407A,0.163
L38S,T2365C,0.101
I54F,A2412T,0.101
G94V,G2533T,0.0821
D60N,G2430A,0.385
I64T,T2443C,0.0507
G40A,G2371C,0.0831
T80I,C2491T,0.116
I62T,T2437C,0.0641
P1H,C2254A,0.113
P39A,C2367G,0.176
G17V,G2302T,0.0535
C95Y,G2536A,0.314
K45E,A2385G,0.0632
I50F,A2400T,0.0641
D29G,A2338G,0.151
N98I,A2545T,0.0391
V82G,T2497G,0.0942
A22D,C2317A,0.513
T74A,A2472G,0.0894
A28S,G2334T,0.0877
G68R,G2454A,0.133
G73D,G2470A,0.0716
I62V,A2436G,0.0496
T96N,C2539A,0.0875
K14E,A2292G,0.0543
I66V,A2448G,0.111
V77A,T2482C,0.120
N98K,T2546A,0.0625
Q92P,A2527C,0.191
D60V,A2431T,0.0516
N83I,A2500T,0.0543
L76I,T2478A,0.0597
G16R,G2298C,0.0629
I85T,T2506C,0.0370
I62K,T2437A,0.0723
V82D,T2497A,0.0530
I13M,A2291G,0.0586
P81H,C2494A,0.111
R8Q,G2275A,0.452
M46L,A2388C,0.125
I13T,T2290C,0.0356
V32E,T2347A,0.0309
V82A,T2497C,0.127
A28T,G2334A,0.260
H69Q,T2459A,0.0523
E65G,A2446G,0.0912
I50N,T2401A,0.0449
T31S,A2343T,0.0317
Q61H,G2435T,0.145
Q58H,G2426T,0.0620
L24F,A2324T,0.0525
M46L,A2388T,0.0766
I15L,A2295C,0.0571
P39Q,C2368A,0.116
K14M,A2293T,0.0357
T26K,C2329A,0.115
I93N,T2530A,0.0407
I15K,T2296A,0.0495
P9T,C2277A,0.0651
F99S,T2548C,0.0869
D60G,A2431G,0.0397
L63F,C2439T,0.0802
L90F,G2522T,0.323
W6R,T2268A,0.0138
F99I,T2547A,0.0871
P9H,C2278A,0.0953
P39L,C2368T,0.405
L10H,T2281A,0.0370
N98D,A2544G,0.0447
A28P,G2334C,0.123
I13K,T2290A,0.0462
P9L,C2278T,0.246
G40R,G2370C,0.0641
C95S,G2536C,0.0436
I64V,A2442G,0.0775
L5P,T2266C,0.0761
I15T,T2296C,0.0482
L23I,C2319A,0.126
M46K,T2389A,0.0768
V11F,G2283T,0.0699
L33V,T2349G,0.0551
D25G,A2326G,0.0680
C95W,C2537G,0.0516
I54T,T2413C,0.0717
M36K,T2359A,0.0897
L33S,T2350C,0.0699
V11G,T2284G,0.0125
T91N,C2524A,0.0707
L89M,C2517A,0.0629
N37K,T2363A,0.0894
A71T,G2463A,0.168
N88K,T2516A,0.0343
I64L,A2442T,0.0547
L63I,C2439A,0.893
T26A,A2328G,0.0886
I54V,A2412G,0.0727
T80S,A2490T,0.0642
M46V,A2388G,0.0358
N88D,A2514G,0.0690
K70R,A2461G,0.0811
I66F,A2448T,0.0529
D29E,T2339A,0.0516
G94D,G2533A,0.188
K55I,A2416T,0.0255
V77I,G2481A,0.0751
W6C,G2270C,0.0710
N83D,A2499G,0.0589
K14N,G2294T,0.0724
M36V,A2358G,0.0664
P39T,C2367A,0.146
P1T,C2253A,0.109

The opening 8 entries, copied out:

{"mutation": "P79S", "base": "C2487T", "RC index": 0.0709}
{"mutation": "N83S", "base": "A2500G", "RC index": 0.0470}
{"mutation": "G52D", "base": "G2407A", "RC index": 0.163}
{"mutation": "L38S", "base": "T2365C", "RC index": 0.101}
{"mutation": "I54F", "base": "A2412T", "RC index": 0.101}
{"mutation": "G94V", "base": "G2533T", "RC index": 0.0821}
{"mutation": "D60N", "base": "G2430A", "RC index": 0.385}
{"mutation": "I64T", "base": "T2443C", "RC index": 0.0507}

The authors read an index above 1 as above wild type (1.9% of all changes in the genome).
Since each clone held several changes (about five per kb), neutral changes can read low.
Base changes are numbered along pNL4-3.

From the data files of Al-Mawsawi et al. 2014, doi:10.1186/s12977-014-0124-6.